Pooled drug test results. Numbers come from NIAID ChemDB, via PubChem.

Common to all: tests in culture

Inhibition is in % at the dose shown (toxicity tests: loss of growth or viability).

structure	method	measure	agent	strain or isolate	cell line	dose	value
CCn1ncc2c1C(=O)c1c(O)ccc(O)c1C2=O		EC50	Cryptosporidium parvum				>100 µM
C=C/C=C/c1cc(OC)cc(=O)o1		inhibition	Cryptosporidium parvum			25 µM	93%
Cn1cc2c(n1)C(=O)c1cc3ccccc3c(O)c1C2=O		EC50	Cryptosporidium parvum				>100 µM
NC[C@@H]1O[C@H](O[C@H]2[C@@H](O)[C@H](O[C@@H]3[C@@H](O)[C@H](N)C[C@H](N)[C@H]3O[C@H]3O[C@H](CO)[C@@H](O)[C@H](O)[C@H]3N)O[C@@H]2CO)[C@H](N)[C@@H](O)[C@@H]1O	luminescence	inhibition	Cryptosporidium parvum	IOWA	MDCK	1000 µg/mL	58.4%
Cc1cc(O)c2c(c1)C(=O)c1c(cnn1C)C2=O		inhibition	Cryptosporidium parvum			10 µM	<10%
CN[C@H]1CC[C@@H](c2ccc(Cl)c(Cl)c2)c2ccccc21	broth dilution	MIC90	Cryptococcus neoformans	3-17			4 µg/mL
O=C1/C(=C/c2ccc(O)cc2O)Oc2cc(O)ccc21		EC50	Cryptosporidium parvum				10–25 µM
Cn1ncc2c1C(=O)c1c(Cl)ccc(O)c1C2=O		EC50	Cryptosporidium parvum				<10 µM
C[C@@H](c1ncncc1F)[C@](O)(Cn1cncn1)c1ccc(F)cc1F	broth dilution	MIC	Cryptococcus neoformans	Clinical isolate (IM 972724)			<0.015 µg/mL
CCC(C)CC(C)CCCCCCCCC(=O)N[C@H]1C[C@@H](O)[C@H](NCCN)NC(=O)[C@@H]2[C@@H](O)CCN2C(=O)[C@H]([C@H](O)CCN)NC(=O)[C@H]([C@H](O)[C@@H](O)c2ccc(O)cc2)NC(=O)[C@@H]2C[C@@H](O)CN2C(=O)[C@H]([C@@H](C)O)NC1=O	broth dilution	MIC	Cryptococcus gattii	ICB 107			128 µg/mL
CC1(C)O[C@H]2[C@H](O)[C@@H](N=[N+]=[N-])C=C(c3ccc(C=O)cc3)[C@H]2O1	broth dilution / turbidity	inhibition	Cryptococcus neoformans	ATCC 32264		7.8 µg/mL	0%
NC[C@@H]1O[C@H](O[C@H]2[C@@H](O)[C@H](O[C@@H]3[C@@H](O)[C@H](N)C[C@H](N)[C@H]3O[C@H]3O[C@H](CO)[C@@H](O)[C@H](O)[C@H]3N)O[C@@H]2CO)[C@H](N)[C@@H](O)[C@@H]1O	cell count	inhibition	Cryptosporidium parvum		MDBK	1000 µg/mL	79.3%
CC[C@H]1OC(=O)[C@H](C)[C@@H](O[C@H]2C[C@@](C)(OC)[C@@H](O)[C@H](C)O2)[C@H](C)[C@@H](O[C@@H]2O[C@H](C)C[C@H](N(C)C)[C@H]2O)[C@](C)(O)C[C@@H](C)CN(C)[C@H](C)[C@@H](O)[C@]1(C)O		inhibition	Cryptosporidium parvum		A549	8 µg/mL	25.5%
CC[C@H]1OC(=O)[C@H](C)[C@@H](O[C@H]2C[C@@](C)(OC)[C@@H](O)[C@H](C)O2)[C@H](C)[C@@H](O[C@@H]2O[C@H](C)C[C@H](N(C)C)[C@H]2O)[C@](C)(O)C[C@@H](C)CN(C)[C@H](C)[C@@H](O)[C@]1(C)O		inhibition	Cryptosporidium parvum		A549	8 µg/mL	33%
Oc1ccccc1C=Nc1ccccc1O		MIC99	Cryptococcus gattii	1913 ER			11.3 µg/mL
CNC(NC)c1ccc2cc(-n3cc(CCCO)nn3)c(=O)oc2c1	broth dilution	MIC	Cryptococcus gattii				>750 µg/mL
Cc1nc(NCCCCNc2ccnc3cc(Cl)ccc23)nc(-c2ccccc2)c1C(=O)OC(C)C		MIC99	Cryptococcus gattii	L24/01			8 µg/mL
O=C1N[C@@H](Cc2c[nH]c3ccccc23)C(=O)N2CCC[C@@H]12	agar diffusion / agar	zone	Cryptococcus neoformans			2 µg/mL	32 mm
Oc1cccc(C=Nc2ccccc2O)c1	broth dilution	MIC	Cryptococcus neoformans	GM			3.6 µg/mL
COc1cccc2c1C(=O)c1cnn(C)c1C2=O		EC50	Cryptosporidium parvum				>100 µM
Oc1ccc(O)c(C=Nc2ccccc2O)c1		MIC99	Cryptococcus gattii	L24/01			8 µg/mL
CSCC[C@H]1NC(=O)[C@H]2CCCN2C1=O	agar diffusion / agar	zone	Cryptococcus neoformans			32 µg/mL	23 mm
O=C1/C(=C/c2ccccc2)Oc2cc(O)ccc21		inhibition	Cryptosporidium parvum			10 µM	1%
NCCCC[C@H](NC(=O)[C@H](Cc1c[nH]c2ccccc12)NC(=O)[C@H](CCCCN)NC(=O)[C@@H](N)CCCCN)C(=O)O		inhibition	Cryptococcus neoformans	ATCC 32264		50 µM	0%
COc1cc(C)cc2c1C(=O)c1cnn(C)c1C2=O		EC50	Cryptosporidium parvum				50–100 µM
COc1ccc(/C=C\C=C\c2cc(OC)cc(=O)o2)cc1		EC50	Cryptosporidium parvum				>50 µM
Cn1nc(Cc2ccc(Cl)cc2)c2ccccc2c1=O	broth dilution	MIC	Cryptococcus neoformans	Clinical isolate (IM 972751)			62.5 µg/mL
CCOC(=O)c1c(C)nc(NCCCCNc2ccnc3cc(Cl)ccc23)nc1-c1ccc(F)cc1		MIC99	Cryptococcus gattii	L 27/01			32 µg/mL
CCC(C)n1ncn(-c2ccc(N3CCN(c4ccc(OC[C@H]5CO[C@](Cn6cncn6)(c6ccc(Cl)cc6Cl)O5)cc4)CC3)cc2)c1=O	broth dilution	MIC	Cryptococcus gattii	L48			2 µg/mL
CCOC(=O)c1c(C)nc(NCCCNc2ccnc3cc(Cl)ccc23)nc1-c1ccccc1		MIC99	Cryptococcus gattii	L24/01			8 µg/mL
C[C@@H](c1nc(-c2ccc(C#N)cc2)cs1)[C@](O)(Cn1cncn1)c1cc(F)ccc1F	broth dilution	MIC50	Cryptococcus gattii	VG IIb			0.125 µg/mL

ECn is the concentration giving n% inhibition of infection, replication or growth. A number after MIC or MFC names an inhibition level or a share of isolates. Zone: diameter of growth inhibition. a–b is a range or a potency band. An empty or dashed field is not shown. Rows are shuffled and stem from different studies.